Measured values from several laboratories, pooled; numbers as filed in NIAID ChemDB.

Common to all: tests in culture; agent: Plasmodium falciparum

An empty or dashed field is not shown.

structure	setting	method	changes	measure	strain or isolate	cells	tested at	value
c1cc(C2=NCCN2)ccc1OCCCCCOc1ccc(C2=NCCN2)cc1	-	hypoxanthine uptake	-	EC50	D6	-	-	0.072 µM
CCN(CC)CCCC(C)Nc1ccnc2cc(Cl)ccc12	72 h	-	-	inhibition	Dd2	-	0.031 µg/mL	60%
OCC1=C[C@@H]2OCC[C@@H]2[C@@H]1CO	-	-	-	MIC	-	-	-	40.6 µg/mL
CCOC(=O)N/N=C(/OCC)C(C)(O)c1ccc(F)c(Br)c1	-	hypoxanthine uptake / radiometric	-	inhibition	3D7	-	5 µM	70%
COc1cc(C2=NCCN2)ccc1OCCCCCOc1ccc(C2=NCCN2)cc1OC	-	hypoxanthine uptake	-	EC50	D6	-	-	0.236 µM
CCCCSc1nc(Nc2nc(-c3ccc(Cl)c(Cl)c3)cs2)nc(N(CC)CC)n1	-	-	-	inhibition	3D7	-	50 µg/mL	12%
CC[C@H]1OC(=O)[C@H](C)[C@@H](OC2C[C@@](C)(OC)[C@@H](O)[C@H](C)O2)[C@H](C)[C@@H](OC2O[C@H](C)C[C@H](N(C)C)[C@H]2O)[C@](C)(OC2C[C@@H](N(C)C)[C@@H](O)[C@H](C)O2)C[C@@H](C)CN(C)[C@H](C)[C@@H](O)[C@]1(C)O	120 h	fluorescence	-	EC50	W2 Mef	RBC	-	0.21 µM
CN[C@@H](CC1=CN=c2c(O)c3c(c(O)c21)=NC=CS3(=O)=O)C(=O)O	-	-	-	MIC	Dd2	-	-	0.159 µM
Nc1nc(Nc2ccccc2)nc(Nc2nc(-c3ccc(Cl)cc3)cs2)n1	-	-	-	inhibition	3D7	-	50 µg/mL	3%
C[C@H]1CCc2c([nH]c3ccccc23)[C@@]2(N1)C(=O)Nc1ccc(Cl)cc12	-	SYBR Green / fluorescence	KAE678-resistant (A184S/P990R)	EC50	KAE678R-2	-	-	0.227 µM
CC1CC2CCC3CC(CCc4cccc(Cl)c4)N=C(N1)N32	-	LDH	-	EC50	D6	-	-	10.09 µM
CCN(CC)CCCC(C)Nc1ccnc2cc(Cl)ccc12	-	LDH	CQ-resistant	fold resistance	Dd2	-	-	23.73
CCC[C@H]1O[C@@H]2CC(=O)O[C@@H]2C2=C1C(=O)c1c(O)cccc1C2=O	-	SYBR Green	-	inhibition	Dd2	-	2.1 µM	90%
Cc1cccc(CC[C@H]2C[C@H]3CCC[C@H]4C[C@@H](CCc5cccc(C)c5)NC(=N2)N34)c1	-	LDH	-	EC50	D6	-	-	1.37 µM
CCN(CC)c1nc(Nc2nc(-c3ccc(Cl)c(Cl)c3)cs2)nc(Sc2ccccc2)n1	-	-	-	inhibition	3D7	-	50 µg/mL	1.5%
CCO/C(=N/NC(=O)NC)C(C)(O)c1ccc(Cl)c(Cl)c1	-	hypoxanthine uptake / radiometric	-	inhibition	3D7	-	5 µM	75%
CC[C@H]1OC(=O)[C@H](C)[C@@H](OC2C[C@@](C)(OC)[C@@H](O)[C@H](C)O2)[C@H](C)[C@@H](OC2O[C@H](C)C[C@H](N(C)C)[C@H]2O)[C@](C)(OC2C[C@H](N)[C@H](O)[C@H](C)O2)C[C@@H](C)C(=O)[C@H](C)[C@@H](O)[C@]1(C)O	120 h	fluorescence	-	EC50	3D7	RBC	-	15.2 µM
CCCO/C(=N/NC(=O)OC(C)(C)C)C(C)(O)c1ccc(Cl)c(Cl)c1	-	hypoxanthine uptake / radiometric	-	inhibition	3D7	-	5 µM	43%
CCN(CC)c1nc(NCCc2ccco2)nc(Nc2nc(-c3ccc(Cl)cc3)cs2)n1	-	-	-	inhibition	3D7	-	50 µg/mL	9.5%
N=C(N)c1ccc(OCCCOc2ccc(C(=N)N)cc2)cc1	-	hypoxanthine uptake	-	EC50	W2	-	-	0.064 µM
CC(=O)O[C@@H]1CC[C@]2(C)C3C[C@H](OC(C)=O)[C@@]4(C)C(CC[C@@H]4C(C)CCCN(C)CCNc4ccnc5cc(Cl)ccc45)C3[C@H](OC(C)=O)C[C@@H]2C1	-	SYBR Green	-	EC90	D6	-	-	0.1906 µM
CC(C)C(CO)[N-]C(=O)c1ccccn1.[Cl][Au]	-	LDH	-	inhibition	3D7	-	20 µM	43%
CCCCCCCCCC1CC2CCCC3CC(C)NC(=N1)N23	-	LDH	-	EC50	W2	-	-	3.76 µM

A second listing of 2 rows from above:

structure,setting,method,changes,measure,strain or isolate,cells,tested at,value
CCC[C@H]1O[C@@H]2CC(=O)O[C@@H]2C2=C1C(=O)c1c(O)cccc1C2=O,-,SYBR Green,-,inhibition,Dd2,-,2.1 µM,90%
CCN(CC)c1nc(Nc2nc(-c3ccc(Cl)c(Cl)c3)cs2)nc(Sc2ccccc2)n1,-,-,-,inhibition,3D7,-,50 µg/mL,1.5%

ECn is the concentration giving n% inhibition of infection, replication or growth. Inhibition is in % at the dose shown (toxicity tests: loss of growth or viability). Fold resistance has wild type as its base. Rows are shuffled and stem from different studies.